Experimental data published in paper PMC12057359, “Inhibitory effect of copper chelators on the budding in Candida albicans” (Antimicrobial Agents and Chemotherapy, 2025).
Some compounds share one range, which may span the group rather than tell each member.

The compounds below were run on C. albicans JCM1542 (assay: iHOPE antimicrobial microdilution assay (turbidity OD600)). Settings: C. albicans JCM1542 antifungal activity.
Format: cell-based, Candida albicans

Structure (SMILES)	fold lower activity than 1
[C-]#[N+][C@@H](C)CC(=O)Nc1ccc(NC(=O)C[C@H](C)[N+]#[C-])cc1 [13b]	2–5 fold
[C-]#[N+][C@H](C)CC(=O)Nc1cccc(NC(=O)C[C@@H](C)[N+]#[C-])c1 [14a]	2–5 fold
[C-]#[N+][C@@H](C)CC(=O)Nc1cccc(NC(=O)C[C@H](C)[N+]#[C-])c1 [14b]	2–5 fold
